# Biological target: rSmCA (recombinant SmCA, α-carbonic anhydrase) (Schistosoma mansoni, UniProt A0A3Q0KSG2)
# Amino acid sequences for entries named in this document (tags omitted). Residues count along the entry.
# UniProt A0A3Q0KSG2, 21-298 limits assumed: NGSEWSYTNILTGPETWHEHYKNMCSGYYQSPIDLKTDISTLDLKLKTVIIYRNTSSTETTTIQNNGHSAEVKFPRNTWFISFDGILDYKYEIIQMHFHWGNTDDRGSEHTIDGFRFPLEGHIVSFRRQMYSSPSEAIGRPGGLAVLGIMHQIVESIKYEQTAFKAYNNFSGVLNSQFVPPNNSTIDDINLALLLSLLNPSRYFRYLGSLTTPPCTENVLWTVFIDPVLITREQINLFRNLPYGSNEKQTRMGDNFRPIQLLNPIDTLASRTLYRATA
# Assay: stopped-flow CO2 hydrase assay, inhibition of rSmCA
# Format: biochemical
# Conditions: ratio of Ki values, both human isoforms
smiles,measurement,value
"O=[As](O)(O)c1ccccc1 [Ph-AsO 3 H 2, phenylarsonic acid]",higher affinity for SmCA versus human isoforms hCA I or hCA II,> 1000 fold

# From PMC6728359, “Crystal structure and chemical inhibition of essential schistosome host-interactive virulence factor carbonic anhydrase SmCA” (Communications Biology, 2019)
